Results of unrelated studies side by side (data: NIAID ChemDB).

All rows: whole-cell or culture tests; agent: Rhinovirus

Conditions beyond the fields shown may differ between rows. ECn: concentration that inhibits the pathogen or its effect by n%.

compound	method	cell line	read-out	strain or isolate	result
CN(C)c1nc(C(F)(F)F)nc2c1ncn2Cc1ccc(F)cc1	plaque count	M-HELA	EC50	Serotype 5	>8 µM
Cc1nc(-c2cc(C)c(OCCCc3cc(C(F)(F)F)no3)c(C)c2)no1	cytopathic effect	HeLa	EC50	Serotype 1A	0.06 µg/mL
CN(C)c1nc(C(F)(F)F)nc2c1ncn2Cc1ccc(Br)cc1	plaque count	M-HELA	EC50	Serotype 1B	0.03 µM
CSc1nsc(-c2ccc(OCc3ccccc3)cc2)c1C#N	cytopathic effect	HELA-OHIO	EC50	Serotype 72 (group A)	>50 µM
Cc1ccc(CCCOc2c(C)cc(-c3nnn(C)n3)cc2C)nn1	cytopathic effect	HeLa	EC50	serotypes 2 14 1A 1B 6 21 22 15 25 30 50 67 89 86 41	0.05 µg/mL
CSc1nsc(-c2ccc(OCCCOc3ccc(C#N)cc3)cc2)c1C#N	cytopathic effect	HELA-OHIO	EC50	Serotype 2 (group B)	>2 µM
Cc1cc(CCCOc2c(C)cc(-c3noc(C(F)(F)F)n3)cc2C)on1	cytopathic effect / visual reading	OHIO HELA-I	EC50	Isolate 15	<0.01 µg/mL
CSc1nsc(-c2ccc(OCCOc3ccc(C#N)cc3)cc2)c1C#N	cytopathic effect	HELA-OHIO	EC50	Serotype 45 (group A)	>2 µM
CCc1nc(-c2cc(C)c(OCCCc3cc(COC)no3)c(C)c2)no1	cytopathic effect	HeLa	EC50	Serotype 14	0.045 µg/mL
CS(=O)(=O)c1ccc(NCc2ccc(Cl)c(Cl)c2)nc1	cytopathic effect	HeLa	EC50	TYPE 1B	0.6 µg/mL
CN(C)c1nc(C(F)(F)F)nc2c1ncn2Cc1ccccc1Cl	plaque count	M-HELA	EC50	Serotype 15	>8 µM
COC(=O)c1cc(CCCOc2c(C)cc(-c3noc(C)n3)cc2C)on1	cytopathic effect	HeLa	EC50	Serotype 1A	0.023 µg/mL
CS(=O)(=O)c1ccc(NCCc2ccc(Cl)cc2)nc1	cytopathic effect	HeLa	EC50	TYPE 64	1.6 µg/mL
CCOC(=O)c1ccc(OCCC2CCN(c3ccc(C)nn3)CC2)cc1	cytopathic effect	HELA-OHIO	EC50	Serotype 15 (group B)	0.09 µM
COc1ccc(CNc2ccc(S(C)(=O)=O)cn2)cc1OC	cytopathic effect	HeLa	EC50	TYPE 64	>10 µg/mL
CSc1nsc(-c2ccc(OCCOc3ccccc3)cc2)c1C#N	cytopathic effect	HELA-OHIO	EC50	Serotype 39 (group B)	>20 µM
CS(=O)(=O)c1ccc(Cc2ccc(Cl)c(Cl)c2)nc1	cytopathic effect	HeLa	EC50	TYPE 64	0.3 µg/mL
Cc1cc(OCCCc2ccc(=S)[nH]n2)cc(C)c1-c1noc(C(F)F)n1	cytopathic effect	HeLa	EC50	serotypes 3 4 5 9 16 18 38 66 75 67	0.05 µg/mL
Cc1c(-c2ccccc2)n(-c2ccc(F)cc2)c2ccc(C(C)C)cc2c1=O	cytopathic effect	HELA-OHIO	EC50	13/353	0.12 µg/mL
CS(=O)(=O)c1ccc(Cc2ccc(Br)cc2)nc1	cytopathic effect	HeLa	EC50	TYPE 2	2.5 µg/mL
CN(C)c1nc(C(F)(F)F)nc2c1ncn2Cc1ccc(Cl)cc1Cl	plaque count	M-HELA	EC50	Serotype 29	>8 µM
CCOC(=O)c1ccc(OCCOc2ccc(-c3snc(SC)c3C#N)cc2)cc1	cytopathic effect	HELA-OHIO	EC50	Serotype 63 (group B)	>2 µM
Cc1ccc(Cn2cnc3c(N(C)C)nc(C(F)(F)F)nc32)c(C)c1	plaque count	M-HELA	EC50	Serotype 15	>8 µM
CCc1ccc(CCCOc2c(C)cc(-c3nnn(C)n3)cc2C)o1	cytopathic effect	HeLa	EC80	serotypes 2 14 1A 1B 6 21 22 15 25 30 50 67 89 86 41	0.44 µg/mL
CCn1c2c(c(=O)c3cc(C(C)C)ccc31)Cc1ccccc1-2	cytopathic effect	HELA-OHIO	EC50	1A/E28	2.6 µg/mL
Fc1cccc(Cn2cnc3c(Nc4cccc(F)c4)nc(C(F)(F)F)nc32)c1	plaque count	M-HELA	EC50	Serotype 53	6.6 µM
Cc1cc(CCCCCOc2c(Cl)cc(C3=NCCO3)cc2Cl)on1	plaque count	HeLa	EC50	TYPE 72	0.62 µg/mL
Cc1c(-c2ccccc2)n(-c2cccc(F)c2)c2ccc(C(C)C)cc2c1=O	cytopathic effect	HELA-OHIO	EC50	TYPE 2	0.03 µg/mL
Nc1ccc(Cn2cnc3c(Nc4cccc(F)c4)nc(C(F)(F)F)nc32)cc1	plaque count	M-HELA	EC50	Serotype 1B	0.4 µM
CSc1nsc(-c2ccc(OS(=O)(=O)c3ccc(C)cc3)cc2)c1C#N	cytopathic effect	HELA-OHIO	EC50	Serotype 72 (group A)	>25 µM
Cc1ccc(-n2c(-c3ccccc3)c(C)c(=O)c3cc(C(C)C)ccc32)cc1	cytopathic effect	HELA-OHIO	EC50	TYPE 1B/B632	>2.5 µg/mL
CSc1nsc(-c2ccc(OCc3ccccc3)cc2)c1C#N	cytopathic effect	HELA-OHIO	EC50	Serotype 39 (group B)	3 µM
CCO/N=C/c1ccc(OCCC2CCN(c3ccc(Cl)nn3)CC2)cc1	neutral red	KB	EC50	11757 (ICAM-1 receptor group 16)	0.008 µM
CS(=O)(=O)c1ccc(Cc2ccc(Cl)cc2)nc1	cytopathic effect	HeLa	EC50	TYPE 1A	0.3 µg/mL
CCOC(=O)c1ccc(OCCC2CCN(c3ccc(C)nn3)CC2)cc1	cytopathic effect	WI-38	EC50	Serotype 64	<0.1 µg/mL
CSc1nsc(-c2ccc(O)cc2)c1C#N	cytopathic effect	HELA-OHIO	EC50	Serotype 39 (group B)	>10 µM
Cc1cc(OCCCc2ccc(Cl)nn2)cc(C)c1-c1noc(C(F)F)n1	cytopathic effect	HeLa	EC50	serotypes 3 4 5 9 16 18 38 66 75 67	0.02 µg/mL
Cc1cc(Cn2cnc3c(N(C)C)nc(C(F)(F)F)nc32)ccc1Cl	plaque count	M-HELA	EC50	TYPE 1B	0.12 µM

For reference, 5 entries again:

compound,method,cell line,read-out,strain or isolate,result
CCOC(=O)c1ccc(OCCC2CCN(c3ccc(C)nn3)CC2)cc1,cytopathic effect,WI-38,EC50,Serotype 64,<0.1 µg/mL
Cc1c(-c2ccccc2)n(-c2cccc(F)c2)c2ccc(C(C)C)cc2c1=O,cytopathic effect,HELA-OHIO,EC50,TYPE 2,0.03 µg/mL
Cc1c(-c2ccccc2)n(-c2ccc(F)cc2)c2ccc(C(C)C)cc2c1=O,cytopathic effect,HELA-OHIO,EC50,13/353,0.12 µg/mL
CSc1nsc(-c2ccc(OS(=O)(=O)c3ccc(C)cc3)cc2)c1C#N,cytopathic effect,HELA-OHIO,EC50,Serotype 72 (group A),>25 µM
CS(=O)(=O)c1ccc(Cc2ccc(Cl)c(Cl)c2)nc1,cytopathic effect,HeLa,EC50,TYPE 64,0.3 µg/mL